Source: ChEMBL document CHEMBL4118106 (J Med Chem, 2018)

Key:
Type in all cases: ADME, organism-based
Conditions in all cases: in vivo
Rattus norvegicus [1] = assay: Clearance in Sprague-Dawley rat at 4 mg/kg, iv by LC-MS/MS analysis
Rattus norvegicus [2] = assay: MRT (0 to t) in Sprague-Dawley rat at 4 mg/kg, iv by LC-MS/MS analysis
Rattus norvegicus [3] = assay: Volume of distribution in Sprague-Dawley rat at 4 mg/kg, iv by LC-MS/MS analysis
Rattus norvegicus [4] = assay: Cmax in Sprague-Dawley rat at 4 mg/kg, iv by LC-MS/MS analysis; parameters: dose 4 mg/kg, route intravenous
Rattus norvegicus [5] = assay: AUC (0 to t) in Sprague-Dawley rat at 4 mg/kg, iv by LC-MS/MS analysis
Rattus norvegicus [6] = assay: Half life in Sprague-Dawley rat at 4 mg/kg, iv by LC-MS/MS analysis

CC[C@H](C)[C@H](NC(=O)[C@H](Cc1ccc(O)cc1)NC(=O)[C@H](CO)NC(=O)[C@H](CCC(=O)O)NC(=O)[C@H](CCC(=O)O)NC(=O)[C@H](CC(C)C)NC(=O)[C@H](CCCCN)NC(=O)[C@H](CCCCN)NC(=O)[C@@H](NC(=O)[C@@H](NC(=O)[C@H](CCC(=O)O)NC(=O)[C@H](CCC(=O)O)NC(=O)[C@H](CC(C)C)NC(=O)[C@H](CCCCN)NC(=O)[C@H](CCCCN)NC(=O)[C@H](CCSC)NC(=O)[C@H](CCC(=O)O)NC(=O)[C@H](Cc1ccc(O)cc1)NC(=O)[C@H](CCC(=O)O)NC(=O)[C@H](CC(C)C)NC(=O)[C@H](CC(=O)O)NC(=O)[C@H](CC(C)C)NC(=O)[C@H](CC(C)C)NC(=O)[C@@H](NC(=O)[C@@H](NC(=O)[C@H](CC(N)=O)NC(=O)[C@@H](NC(=O)[C@H](CCC(N)=O)NC(=O)[C@@H](NC(=O)[C@H](CC(C)C)NC(=O)[C@H](CO)NC(C)=O)[C@@H](C)O)[C@@H](C)CC)[C@@H](C)O)[C@@H](C)O)C(C)C)C(C)C)C(=O)N[C@@H](CC(=O)O)C(=O)N[C@@H](CC(C)C)C(=O)N[C@@H](CCCCN)C(=O)N[C@@H](CCC(=O)O)C(=O)N[C@@H](CC(C)C)C(N)=O
clearance (Rattus norvegicus [1]): 17.3 mL/min/kg | MRT(t) (Rattus norvegicus [2]): 1.34 h | Vd (Rattus norvegicus [3]): 2.19 L/kg | Cmax (Rattus norvegicus [4]): 17000 ng/mL | AUCt (Rattus norvegicus [5]): 3350 ng·h/mL | t1/2 (Rattus norvegicus [6]): 1.54 h
